Measurements: article PMC8875392, “Design and Characterization of Myristoylated and Non-Myristoylated Peptides Effective against Candida spp. Clinical Isolates” (International Journal of Molecular Sciences, 2022)

How the values were obtained:
Type in all cases: physicochemical
[1] = Quenching of Trp-1 fluorescence by acrylamide in lipid vesicles; conditions: for fa (fraction accessible to the quencher) / NAF (Net Accessibility Factor): POPC LUVs; for KSV (Stern–Volmer constant): POPC LUVs 400 μM (myristoylated) or 1.0 mM (non-myristoylated), peptide 2.0 μM; for NAF (Net Accessibility Factor): (KSV)LUV/(KSV)Buffer
[2] = Quenching of Trp-1 fluorescence by acrylamide in buffer; conditions: for KSV (Stern–Volmer constant): peptide 2.0 μM, pH 7.4, 298 K
[3] = Quenching of Trp-1 fluorescence by acrylamide in lipid vesicles; conditions: for fa (fraction accessible to the quencher) / NAF (Net Accessibility Factor): POPC/POPG LUVs; for KSV (Stern–Volmer constant): POPC/POPG LUVs 400 μM (myristoylated) or 1.0 mM (non-myristoylated), peptide 2.0 μM; for NAF (Net Accessibility Factor): (KSV)LUV/(KSV)Buffer
[4] = Circular dichroism, fractional helical content; conditions: CD ellipticity at 222 nm, POPC/POPG lipid vesicles, L/P molar ratio of 40, 30 μM lipopeptide, 10 mM phosphate pH 7.4, 298 K

Row | Compound | fa (fraction accessible to the quencher) [1] | KSV (Stern–Volmer constant) [1] [M⁻¹] | NAF (Net Accessibility Factor) [1] | fa (fraction accessible to the quencher) [2] | KSV (Stern–Volmer constant) [2] [M⁻¹] | fa (fraction accessible to the quencher) [3] | KSV (Stern–Volmer constant) [3] [M⁻¹] | NAF (Net Accessibility Factor) [3] | helical fraction fα [4] | Ka (average Stern–Volmer constant for the accessible fluorophore) ([2]; modified Stern–Volmer equation) [M⁻¹]
1 | CCCCCCCCCCCCCC(=O)N[C@@H](Cc1c[nH]c2ccccc12)C(=O)N[C@H](C(=O)N[C@H](C(=O)N[C@@H](CCCCN)C(=O)N[C@@H](CCCCN)C(=O)N[C@H](C(=O)N[C@@H](CCCCN)C(=O)NCC(=O)N[C@@H](CC(C)C)C(=O)N[C@@H](CC(C)C)C(=O)N[C@@H](CCCCN)C(=O)O)C(C)C)C(C)C)C(C)C [Myr-C] (Myristoyl-WVVKKVKGLLK-OH; C-terminus assumed) | 1 | 4.4 ± 0.1 | 0.21 | 1 | 20.5 ± 1 | 1 | 2.7 ± 0.1 | 0.13 | ~ 0.1 | –
2 | CCCCCCCCCCCCCC(=O)N[C@@H](Cc1c[nH]c2ccccc12)C(=O)N[C@@H](Cc1ccccc1)C(=O)NCC(=O)N[C@@H](CCCCN)C(=O)N[C@@H](CC(C)C)C(=O)N[C@@H](Cc1ccc(O)cc1)C(=O)N[C@@H](CCCNC(=N)N)C(=O)NCC(=O)N[C@H](C(=O)N[C@H](C(=O)N[C@@H](CCCCN)C(=O)O)[C@@H](C)O)[C@@H](C)CC [Myr-A] (Myristoyl-WFGKLYRGITK-OH; C-terminus assumed) | 1 | 2.1 ± 0.2 | 0.26 | 1 | 8.0 ± 0.1 | 1 | 2.9 ± 0.1 | 0.36 | ~ 0.2 | –
3 | CCCCCCCCCCCCCC(=O)N[C@@H](Cc1c[nH]c2ccccc12)C(=O)N[C@@H](CCCNC(=N)N)C(=O)NCC(=O)N[C@H](C(=O)N[C@H](C(=O)N[C@@H](CCCCN)C(=O)N[C@H](C(=O)N[C@H](C(=O)N[C@@H](CCCCN)C(=O)N[C@@H](CCCCN)C(=O)N[C@H](C(=O)O)C(C)C)C(C)C)C(C)C)[C@@H](C)O)[C@@H](C)CC [Myr-B] (Myristoyl-WRGITKVVKKV-OH; C-terminus assumed) | 1 | 5.1 ± 0.1 | 0.15 | 0.92 | – | 1 | 2.3 ± 0.1 | 0.07 | – | 34.7 ± 0.6

Where a SMILES comes first, the peptide text is derived from it. The star is where a group is joined. Myristoyl = CCCCCCCCCCCCCC(=O)*
